The source of these data is patent US20120135959A1, “Metalloprotein inhibitors containing nitrogen based ligands” (priority 2006, published 2012).

Amino acid sequences for entries named in this document (tags omitted). Residues count along the entry.
UniProt P15917, 34-809 limits assumed: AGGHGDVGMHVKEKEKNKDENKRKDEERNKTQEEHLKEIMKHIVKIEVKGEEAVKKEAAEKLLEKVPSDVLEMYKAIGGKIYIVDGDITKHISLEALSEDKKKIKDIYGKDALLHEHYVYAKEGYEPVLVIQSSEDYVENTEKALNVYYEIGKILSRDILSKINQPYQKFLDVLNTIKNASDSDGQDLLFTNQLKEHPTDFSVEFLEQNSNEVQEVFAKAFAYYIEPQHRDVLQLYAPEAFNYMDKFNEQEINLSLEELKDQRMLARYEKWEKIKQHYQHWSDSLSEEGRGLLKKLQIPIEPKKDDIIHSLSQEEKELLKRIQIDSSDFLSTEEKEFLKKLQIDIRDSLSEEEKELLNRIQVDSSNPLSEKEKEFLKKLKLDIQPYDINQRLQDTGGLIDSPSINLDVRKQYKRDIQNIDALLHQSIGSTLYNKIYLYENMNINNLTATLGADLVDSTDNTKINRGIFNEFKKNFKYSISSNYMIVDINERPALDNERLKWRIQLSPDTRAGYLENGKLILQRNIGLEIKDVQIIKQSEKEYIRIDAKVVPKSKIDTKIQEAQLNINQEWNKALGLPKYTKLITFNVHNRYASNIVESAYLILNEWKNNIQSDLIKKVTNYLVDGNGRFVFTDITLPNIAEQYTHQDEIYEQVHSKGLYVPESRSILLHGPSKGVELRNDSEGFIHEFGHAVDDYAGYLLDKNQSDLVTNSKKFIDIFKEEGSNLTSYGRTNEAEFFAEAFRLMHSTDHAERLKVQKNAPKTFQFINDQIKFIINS

What is called IC50 is the point on the concentration scale where inhibition reaches its midpoint.

In the test the target is recombinant anthrax lethal factor (Bacillus anthracis, UniProt P15917). Nature of the test: Recombinant anthrax lethal factor fluorescence assay. As to conditions: read-out: LF IC50; fluorescence-based assay, LF 3 nM, 45 min preincubation at 25° C., pH 7.0; at least three independent experiments; spread in brackets. The class given is biochemical.

On to `C1CNCCNCCCNCCNC1`, for which the IC50 was 2920 µM.
